# Data published in publication PMC10107996, “Release of hepatitis B virions is positively regulated by glucose‐regulated protein 78 through direct interaction with preS1” (Journal of Medical Virology, 2022).
# Molecular target: T1, purified recombinant GRP78 protein (human)
# T1 construct: source: recombinant, purified
# Assay: MST; purified truncated GST-preS1 proteins with GRP78
# Conditions: both partners purified
binder,measurement,value
"GST-preS1-p1 ([…]) (domain or fragment, GST carrier omitted. Genotype not printed: a 119-residue preS1 and the DPAFGANS peptide exclude the genotype D candidate (108-residue preS1); genotype C assumed. Check residues come from the printed …) not shown",Kd,899 nM
